Fitness effects across NS2B and the NS3 protease domain of Zika virus

Values reported by Ni et al. 2025 (doi:10.1038/s41467-025-63602-z).

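Mutant virus pools were grown in human Huh-7.5 cells. The effect is the change in frequency of a mutant, normalised to wild type, as a mean of three replicate libraries (two for positions 207-308). The study looked for pockets that tolerate few changes, as a guide for inhibitor design.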

The scanned region of Zika virus MR766 is shown below (positions 1-308): NS2B is 2-131, NS3 begins at position 132.
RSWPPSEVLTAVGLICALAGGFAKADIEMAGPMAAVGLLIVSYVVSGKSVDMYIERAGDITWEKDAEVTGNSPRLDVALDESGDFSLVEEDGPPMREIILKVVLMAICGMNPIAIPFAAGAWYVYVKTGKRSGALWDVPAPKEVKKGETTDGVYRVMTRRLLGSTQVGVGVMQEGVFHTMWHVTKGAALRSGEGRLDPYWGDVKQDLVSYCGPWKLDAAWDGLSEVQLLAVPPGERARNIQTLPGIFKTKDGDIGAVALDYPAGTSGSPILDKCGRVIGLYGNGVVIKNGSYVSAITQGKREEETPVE

Scale: log2 effect, wild type = 0; the lower, the more harmful to the virus. A change reads original residue, position, new residue.

{"change": "S6L", "effect (log2)": -6.72}
{"change": "V12A", "effect (log2)": -1.97}
{"change": "G13W", "effect (log2)": -5.33}
{"change": "A19N", "effect (log2)": -5.70}
{"change": "F22P", "effect (log2)": -5.80}
{"change": "E28A", "effect (log2)": -1.05}
{"change": "G31L", "effect (log2)": -7.38}
{"change": "P32A", "effect (log2)": -6.53}
{"change": "P32L", "effect (log2)": -6.95}
{"change": "A57M", "effect (log2)": -5.31}
{"change": "D59F", "effect (log2)": -5.52}
{"change": "I60P", "effect (log2)": -6.00}
{"change": "W62C", "effect (log2)": -6.98}
{"change": "E63L", "effect (log2)": -5.59}
{"change": "A66F", "effect (log2)": -6.32}
{"change": "V68Q", "effect (log2)": -5.90}
{"change": "T69*", "effect (log2)": -7.82}
{"change": "P73C", "effect (log2)": -6.05}
{"change": "D76K", "effect (log2)": -1.43}
{"change": "V77A", "effect (log2)": -6.96}
{"change": "E90S", "effect (log2)": -0.45}
{"change": "I98Y", "effect (log2)": -6.00}
{"change": "I99G", "effect (log2)": -1.40}
{"change": "I99K", "effect (log2)": -5.62}
{"change": "L100I", "effect (log2)": -1.80}
{"change": "M105S", "effect (log2)": -7.40}
{"change": "G129N", "effect (log2)": -4.07}
{"change": "R131W", "effect (log2)": -5.90}
{"change": "W136M", "effect (log2)": -6.88}
{"change": "R159E", "effect (log2)": -5.11}
{"change": "G175P", "effect (log2)": -5.97}
{"change": "H178N", "effect (log2)": -2.46}
{"change": "G186M", "effect (log2)": -5.29}
{"change": "Q205S", "effect (log2)": -5.59}
{"change": "V208P", "effect (log2)": -8.49}
{"change": "G212E", "effect (log2)": -6.81}
{"change": "P213C", "effect (log2)": -1.85}
{"change": "D221T", "effect (log2)": -6.49}
{"change": "G222C", "effect (log2)": -3.69}
{"change": "L229A", "effect (log2)": -2.42}
{"change": "P232N", "effect (log2)": -5.05}
{"change": "A258S", "effect (log2)": -7.31}
{"change": "P262I", "effect (log2)": -4.65}
{"change": "G267I", "effect (log2)": -5.57}
{"change": "S268I", "effect (log2)": -4.43}
{"change": "G279T", "effect (log2)": -5.62}
{"change": "V286D", "effect (log2)": -4.94}
{"change": "V286H", "effect (log2)": -4.82}
{"change": "P306E", "effect (log2)": -3.09}

The first 6 entries again:

| change | effect (log2) |
|---|---|
| S6L | -6.72 |
| V12A | -1.97 |
| G13W | -5.33 |
| A19N | -5.70 |
| F22P | -5.80 |
| E28A | -1.05 |

The region was split into three libraries (1-103, 104-206, 207-308). Values above 0 are not proof of better growth: six high scorers were tested one by one, five grew less well than wild type and one about as well. The authors count -1 or higher as tolerated. Position 1 is the last residue of NS2A. An asterisk is a stop codon; stop codons read about -7, near the floor of the assay.